Measured values reported in publication PMC6224593.

Key:
[1] = system: ComR + XIP (mature ComS peptide); experiment: EMSA; conditions: 4 uM ComR, 8 uM XIP, no Prx; EMSA: ComR 4 uM, XIP 8 uM, Prx as indicated, 30 min RT, then 100 ng FAM-DNA 15 min RT; 5% native PAGE; recombinant protein; protein details: N-terminal His6 (pET-15b); label: 5'-FAM on reverse strand; probe letters rebuilt from the primers and the genome
[2] = system: T1, ComR (Streptococcus mutans UA159); experiment: EMSA; conditions: ComR without XIP; EMSA: ComR 4 uM, XIP 8 uM, Prx as indicated, 30 min RT, then 100 ng FAM-DNA 15 min RT; 5% native PAGE; recombinant protein; residues 1-304; protein details: N-terminal His6 (pET-15b); label: 5'-FAM on reverse strand; probe letters rebuilt from the primers and the genome
T1 sequence (looked up): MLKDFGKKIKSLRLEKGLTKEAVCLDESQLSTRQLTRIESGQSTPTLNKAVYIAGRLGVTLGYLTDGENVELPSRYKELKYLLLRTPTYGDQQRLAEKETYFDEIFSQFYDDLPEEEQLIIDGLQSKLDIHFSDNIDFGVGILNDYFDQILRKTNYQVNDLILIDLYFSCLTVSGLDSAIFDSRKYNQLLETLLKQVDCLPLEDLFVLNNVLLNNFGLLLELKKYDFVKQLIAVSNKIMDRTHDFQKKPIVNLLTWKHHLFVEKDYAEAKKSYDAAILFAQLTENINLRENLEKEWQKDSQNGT

“CCTGTTATTCTCCTTTCTTTTTGATATCATTCATTATAAATGATCCTTCAAAAAAAGAACAGGACATTTATGTCCCGTTCTGAGAATCTTTTTGCCATTCTTTCTCCAAATTTTCTCTTAAATTAATGTTTTCTGTTAACTGGGCAAATAAGATAGCAGCATCATAGCTCTTTTTAGCTTCCGCATAATCTTTTTCAACAAATAAATGATGCTTCCATGTCAGAAGATTAACAATAGGCTTTTTTTGAAAATCATGAGTTCTATCCATGATTTTATTGCTGACAGCAATAAGCTGCTTAACAAAATCATATTTTTTCAATTCTAAGAGGAGTCCAAAATTATTCAATAAAACATTATTTAAAACGAAAAGATCTTCCAATGGAAGGCAGTCTACCTGCTT (double strand) [comS promoter probe (PcomS)]”: binds [1]; no binding [2].

“TTGAATCGGGTAGCATATAAAGAGAATGGGCTAATGGTTTCTCCTTAAACTATTAGAATGATTGTTTAATAGTGCAGACGGTTTTGAGATTTGTTATATTTAATAAGTTAATGTATCGTCCAAATTGGTTAAGTACATGGAGGTAAAAATATGATTGTATGCGCGGCGATTAGTTTTTGTTTCTTGTGAACTTTGATTTGTTGATATTGTTCTCGAATTGGGCGTGTTCGACATACCCTGCTTTATCTTGAATTTTGATCCTCTTAATTTTCAATCTGTGAATTGAATGTTTCAGGGAATTTGTCCAATTTCAAATAATGAGAACCGTGTGGATCTACTTATCAAAATTTTTTGCGTAAAATAAAGGATCTGCTTAAGTGTTTTATTAGTTTGTAATGCGAGGTGATGTTTTGTTTAAAAAGAAACTGTTTAATCTGTTAGTCAGAGGTTGTAAATAAAACAGCCAGTTAAGATGGGACATTTATGTCCTGTTCTTAAAGTCTTTTTCGTTTTATAATAATTTTATTATAAAAGGAGGTCATCGTAATAG (double strand) [sigX promoter probe (PsigX)]”: binds [1]; no binding [2].

For some of these results: A negative result means that nothing was seen under these conditions. For some of these results: At least one verdict was read from the data and is not stated in words by the source. For some of these results: Protein sequences can lack the tags named with them.
